Measured values from several laboratories, pooled; numbers as filed in NIAID ChemDB.

Shared fields: whole-cell or culture tests; organism: Mycobacterium tuberculosis

a–b is a range or a potency band.

SMILES	strain or isolate	read by	measure	tested at	result
C[C@@H]1CN(c2c(F)c(N)c3c(=O)c(C(=O)O)cn(C4CC4)c3c2F)C[C@H](C)N1	5 strains (ofloxacin-susceptible)		MIC		0.16–0.32 µg/mL
O=C1c2cc([N+](=O)[O-])ccc2-n2c1nc1ccccc1c2=O	H37Rv		MIC		0.015 µg/mL
Nc1cnn2cnnc2c1	H37Rv	BACTEC	inhibition	12.5 µg/mL	0%
CC1(C)O[C@H]2OC([C@H](CCO)NCCCCCCCCCN[C@@H](CCO)C3O[C@@H]4OC(C)(C)O[C@@H]4[C@H]3OCc3ccccc3)[C@H](OCc3ccccc3)[C@H]2O1	H37Rv		MIC		25 µg/mL
O=C1[C@H](Cl)[C@@H](c2cccc(Cl)c2Cl)N1NC1=Nc2ccccc2Sc2ccccc21	H37Rv	broth dilution	MIC		500 µg/mL
NNC(=O)c1cc(C2CCCCC2)c2ccccc2n1	H37Ra	BACTEC	MIC		>6.25 µg/mL
CCCCNCc1cccc(O)c1	H37Rv		MIC		125 µg/mL
CC1(C)[C@H](C(=O)O)N2C(=O)C[C@H]2S1(=O)=O	Isolate 1		MIC		>16 µg/mL
O=C1C(=Nc2cccc(Cl)c2)CC(c2ccc(Cl)cc2)N1c1cccc(Cl)c1	H37Rv	BACTEC	MIC bound		>12.8 µg/mL
O=C1c2ccccc2-n2c1nc1nccnc1c2=O	H37Rv		MIC		5 µg/mL
O=C(O)[C@H]1/C(=C/CO)O[C@@H]2CC(=O)N21	Isolate 1		MIC		>16 µg/mL
Cc1cc(N(CCCl)CCCl)ccc1C=Nc1ccc(-c2csc(-c3ccccc3)n2)c(Cl)c1	H37Rv	BACTEC	inhibition	12.5 µg/mL	66%
N/C(COc1ccc([N+](=O)[O-])cc1)=N/NC(=O)c1ccncc1	INH-r		MIC		25 µg/mL
C=CCN1[C@@H](c2ccccc2)CC2(C[C@H]1c1ccccc1)N=c1c(c3c4c5c(C)c(O)c3c(O)c1=NC(=O)/C(C)=C\C=C\[C@H](C)[C@H](O)[C@@H](C)[C@H](O)[C@H](C)[C@H](OC(C)=O)[C@H](C)[C@@H](OC)/C=C/O[C@@](C)(O5)C4=O)N2	ATCC 35822 (isoniazid-resistant)		MIC		0.02 µg/mL
Cc1ccccc1NC(=O)CC(=O)N1N=C(N2c3ccccc3Sc3ccccc32)CC1c1ccccc1	H37Rv	BACTEC	MIC bound		>12.5 µg/mL
O=C(N/N=C(\COc1ccc([N+](=O)[O-])cc1)N=Cc1cccnc1)c1ccncc1	INH-r		MIC		100 µg/mL
NNC(=O)Cc1cc(C2CCCC2)nc2ccccc12	H37Ra	BACTEC	MIC		>6.25 µg/mL
O=C1c2ccccc2-n2c1nc1ccc(Cl)cc1c2=O	H37Rv		MIC		0.06 µg/mL
CCOc1ccc(NC2=CC(=O)C(=O)c3ccccc32)cc1	H37Rv	resazurin	inhibition	6.25 µg/mL	101%
c1ccc(-c2nc3sc(C4CCCCC4)nn3c2CN2CCCC2)cc1	H37Rv	BACTEC	inhibition	6.25 µg/mL	<90%
CCn1c(O)c(N=NC(=S)c2ccc3ccccc3n2)c2ccccc21	H37Rv	BACTEC	inhibition	12.8 µg/mL	78%
c1ccc(-c2cn3nc(-c4cccs4)sc3n2)cc1	H37Rv	BACTEC	inhibition	6.25 µg/mL	<90%
CC(=O)OCC1=C(C(=O)O)N2C(=O)[C@@H](NC(=O)Cc3cccs3)[C@H]2SC1	H37Rv		MIC		>16 µg/mL
O=C(Nc1cnc2ccccc2c1)c1cc(C2C3CC4CC(C3)CC2C4)c2ccccc2n1	H37Ra	BACTEC	MIC		>6.25 µg/mL
c1ccc(-c2nc3sc(-c4cccs4)nn3c2CN2CCCC2)cc1	H37Rv	BACTEC	inhibition	6.25 µg/mL	<90%
CCCCCNC(=O)c1cc(C2C3CC4CC(C3)CC2C4)c2ccccc2n1	H37Ra	BACTEC	MIC		>6.25 µg/mL
COc1cccc(NC(=O)c2ccc(S(C)(=O)=O)o2)c1	H37Rv		MIC90		200 µg/mL
Brc1ccc(-c2cn3nc(C4CCCCC4)sc3n2)cc1	H37Rv	BACTEC	inhibition	6.25 µg/mL	<90%
Cc1ccc([C@@H]2[C@@H](Cl)C(=O)N2NC2=Nc3ccccc3Sc3ccccc32)cc1	H37Rv	broth dilution	MIC		1000 µg/mL
O=C(OCC1OC2OC(c3ccccc3)(n3ccc4c([N+](=O)[O-])ccnc43)OC2C1OC(=O)c1ccccc1)c1ccccc1	H37Rv	resazurin	MIC bound		>6.25 µg/mL
N#Cc1c(-c2ccccc2)nc2sc(-c3cccs3)nn12	H37Rv	BACTEC	inhibition	6.25 µg/mL	<90%
O=C(Cc1nn(Cc2ccc(Br)cc2F)c(=O)c2ccccc12)N/N=C/c1ccccc1C(F)(F)F	Multidrug-resistant (MDR)		MIC		0.36 µM
O=C1c2ccccc2-n2c1nc1ncccc1c2=O	H37Rv		MIC		0.25 µg/mL
CCCCN1[C@@H](c2ccccc2)CC2(C[C@H]1c1ccccc1)N=c1c(c3c4c5c(C)c(O)c3c(O)c1=NC(=O)/C(C)=C\C=C\[C@H](C)[C@H](O)[C@@H](C)[C@H](O)[C@H](C)[C@H](OC(C)=O)[C@H](C)[C@@H](OC)/C=C/O[C@@](C)(O5)C4=O)N2	ATCC 35837 (ethambutol-resistant)		MIC		0.02 µg/mL
CCCCNCc1ccc(N(CC)CC)cc1	H37Rv		MIC		250 µg/mL
CCOC(=O)C[C@H](NCCCN[C@@H](CC(=O)OCC)C1O[C@@H]2OC(C)(C)O[C@@H]2[C@H]1OCc1ccccc1)C1O[C@@H]2OC(C)(C)O[C@@H]2[C@H]1OCc1ccccc1	H37Rv		MIC		25 µg/mL
CO[C@@H]1[C@@H](OC(N)=O)[C@@H](O)[C@H](Oc2ccc3c(O)c(NC(=O)c4ccc(O)c(CC=C(C)C)c4)c(=O)oc3c2C)OC1(C)C	H37Rv (ATCC 27294)	resazurin	MIC		2 µg/mL
COC(=O)C1C2CCCCC1C(=O)O2	H37Rv	BACTEC	MIC		≥12.5 µg/mL
O=C1c2cc(F)ccc2-n2c1nc1ccccc1c2=O	H37Rv		MIC		0.13 µg/mL
CCCCNCc1ccccc1	H37Rv		MIC		60 µg/mL
Cc1ccc(-c2cnc(NCCCN(C)C)c(C(N)=O)n2)cc1F	H37Rv (ATCC 27294)	resazurin	MIC		>32 µg/mL
Cc1c(O)c(=O)ccn1[C@@H]1O[C@H](CO)[C@@H](O)[C@H]1O	H37Rv	BACTEC	MIC		≥12.5 µg/mL
NNC(=O)c1ccncc1	Multidrug-resistant (MDR)		MIC		45.57 µM
CC1(C)C[C@H]2[C@@H](C1)[C@@H](C(CCO)NCCCCNC(CCO)[C@H]1O[C@@H]3CC(C)(C)C[C@@H]3[C@H]3CC(C)(C)C[C@H]31)O[C@@H]1CC(C)(C)C[C@H]21	H37Rv		MIC		>12.5 µg/mL
CC1CN(C(=N)C#N)C(C)CN1C(=N)C#N	H37Rv	BACTEC	MIC		≥12.5 µg/mL
CN(C)c1ccc(C2SCC(=O)N2NC2=Nc3ccccc3Sc3ccccc32)cc1	H37Rv	broth dilution	MIC		1000 µg/mL
CCCCCCc1ccc2c(c1)C(=O)c1nc3ccncc3c(=O)n1-2	H37Rv		MIC		0.015 µg/mL
CO/C(=N\N=C\c1ccc(OC)c(OC)c1)c1ccncc1		BACTEC	inhibition	0.5 µM	0%
c1ccc(-c2nc3sc(-c4ccco4)nn3c2CC2CCOCC2)cc1	H37Rv	BACTEC	inhibition	6.25 µg/mL	<90%
N/C(COc1ccccc1Cl)=N/NC(=O)c1ccncc1	H37Rv(ATCC25584)		MIC		25 µg/mL
CN(C)CCCOc1ccc(Nc2ncc(-c3cccc(F)c3)nc2C(=O)O)cc1	H37Rv (ATCC 27294)	resazurin	MIC		>32 µg/mL
COc1ccc(OC)c([C@@H]2[C@@H](Cl)C(=O)N2NC2=Nc3ccccc3Sc3ccccc32)c1	H37Rv	broth dilution	MIC		500 µg/mL
CC(C)CC(=O)N[C@H](C(=O)N[C@H](C(=O)N[C@@H](CC(C)C)[C@@H](O)CC(=O)N[C@@H](C)C(=O)N[C@@H](CC(C)C)[C@@H](O)CC(=O)O)C(C)C)C(C)C	H37Rv	BACTEC	MIC bound		>12.5 µg/mL
O=C(Cc1cccs1)N[C@@H]1C(=O)N2C(C(=O)[O-])=C(C[n+]3ccccc3)CS[C@H]12	Isolate 5		MIC		>16 µg/mL
CC(=O)Nc1ccc(OC/C(N)=N\NC(=O)c2ccncc2)cc1	H37Rv(ATCC25584)		MIC		50 µg/mL
Cc1cc(C2CCCC2)nc2c(C3CCCC3)cccc12	H37Ra	BACTEC	MIC		6.25 µg/mL
CC1(C)C[C@H]2[C@@H](C1)[C@@H](C(CCO)NCCCCCCCCCNC(CCO)[C@H]1O[C@@H]3CC(C)(C)C[C@@H]3[C@H]3CC(C)(C)C[C@H]31)O[C@@H]1CC(C)(C)C[C@H]21	H37Rv		MIC		25 µg/mL
CC(=O)NNc1ccc([N+](=O)[O-])cn1	H37Rv	BACTEC	MIC		≥12.5 µg/mL
CNCc1ccccc1	H37Rv		MIC		250 µg/mL
N/N=C1\CCC(C(=O)NN)C1	H37Rv	BACTEC	MIC bound		>12.5 µg/mL
Cc1ccc(-c2cnc(Nc3cnc(OCCCN4CCN(C)CC4)nc3)c(C(N)=O)n2)c(F)c1	H37Rv (ATCC 27294)	resazurin	MIC		0.5 µg/mL
CC1(C)C[C@H]2[C@@H](C1)[C@@H](C(CCO)NCCCCCCCCNC(CCO)[C@H]1O[C@@H]3CC(C)(C)C[C@@H]3[C@H]3CC(C)(C)C[C@H]31)O[C@@H]1CC(C)(C)C[C@H]21	H37Rv		MIC		>25 µg/mL
CCCCCCCNC(=O)c1cc(C2C3CC4CC(C3)CC2C4)c2ccccc2n1	H37Ra	BACTEC	MIC		>6.25 µg/mL
c1ccc(-c2cn3nc(-c4ccco4)sc3n2)cc1	H37Rv	BACTEC	inhibition	6.25 µg/mL	<90%
CCCCNCc1ccc(Br)cc1	H37Rv		MIC		250 µg/mL
O=C(Nc1ccncc1)c1ccc([N+](=O)[O-])o1	H37Rv		MIC90		6.25 µg/mL
Cn1cncc1C(=O)c1nccc2c1[nH]c1ccccc12	H37Rv		MIC		14.1 µg/mL
Cc1cc2nc3c(C(O)C(O)C(O)CO)nn(-c4ccccc4)c3nc2cc1C	H37Rv	BACTEC	MIC bound		>12.5 µg/mL
Brc1ccc(-c2nc3sc(-c4cccs4)nn3c2CC2CCOCC2)cc1	H37Rv	BACTEC	inhibition	6.25 µg/mL	<90%
Cc1ccc(-c2cnc(Nc3ccc(OCCCN4CCN(C)CC4)nc3)c(C(N)=O)n2)cc1F	H37Rv (ATCC 27294)	resazurin	MIC		0.5 µg/mL
O=C(O)CSc1nc2c(Cl)c(Cl)c(Cl)cc2[nH]1		resazurin	MIC bound		>6.25 µg/mL
O=C(N/N=C(\COc1ccc(Cl)cc1)N=Cc1ccncc1)c1ccncc1	INH-r		MIC		50 µg/mL
O=C(N/N=C/c1ccc(N(CCCl)CCCl)cc1)C(=O)c1c[nH]c2ccccc12	H37Rv	resazurin	MIC		12.5 µg/mL
Cn1cc([N+](=O)[O-])cc1C(=O)Nc1ccccc1	H37Rv		MIC90		>200 µg/mL
O=C(Cc1nn(Cc2ccc(Br)cc2F)c(=O)c2ccccc12)N/N=C/c1cccc([N+](=O)[O-])c1	Multidrug-resistant (MDR)		MIC		0.37 µM
CC1(C)O[C@H]2OC([C@H](CCO)NCCCCCCCCN[C@@H](CCO)C3O[C@@H]4OC(C)(C)O[C@@H]4[C@H]3OCc3ccccc3)[C@H](OCc3ccccc3)[C@H]2O1	H37Rv		MIC		>25 µg/mL
C[C@H](NC(=O)[C@H](CO)NC(=O)CN)C(=O)O	H37Rv	BACTEC	MIC		≥12.8 µg/mL
CCOC(=O)c1ccc(C(=O)Nc2cccc(OC)c2)o1	H37Rv		MIC90		200 µg/mL
CC(=O)OC1CCCC2=C1N=C1C=CC=CC1[N+]2=O	H37Rv	BACTEC	inhibition	12.5 µg/mL	0%
O/N=C/c1c(-c2ccccc2)nc2sc(-c3cccs3)nn12	H37Rv	BACTEC	inhibition	6.25 µg/mL	<90%
COc1cccc(OC/C(N)=N\NC(=O)c2ccncc2)c1	INH-r		MIC		100 µg/mL
Cc1oc(N)c(S(=O)(=O)c2cc3ccccc3n(O)c2=N)c1C	H37Rv	resazurin	MIC bound		>6.25 µg/mL
CO[C@H]1/C=C/O[C@@]2(C)Oc3c(C)c(O)c4c(O)c(c5c(c4c3C2=O)NC2(C[C@@H](c3ccc(F)cc3)N[C@@H](c3ccc(F)cc3)C2)N=5)=NC(=O)/C(C)=C\C=C\[C@H](C)[C@H](O)[C@@H](C)[C@H](O)[C@H](C)[C@H](OC(C)=O)[C@@H]1C	ATCC 35838 (rifampicin- rifabutin-resistant)		MIC		0.5 µg/mL
Cn1cc([N+](=O)[O-])nc1C(=O)NCc1ccc2c(c1)OCO2	H37Rv		MIC90		>200 µg/mL

7 of the rows above, restated:

SMILES,strain or isolate,read by,measure,tested at,result
CC(=O)OCC1=C(C(=O)O)N2C(=O)[C@@H](NC(=O)Cc3cccs3)[C@H]2SC1,H37Rv,,MIC,,>16 µg/mL
c1ccc(-c2nc3sc(-c4cccs4)nn3c2CN2CCCC2)cc1,H37Rv,BACTEC,inhibition,6.25 µg/mL,<90%
N#Cc1c(-c2ccccc2)nc2sc(-c3cccs3)nn12,H37Rv,BACTEC,inhibition,6.25 µg/mL,<90%
O=C(Nc1ccncc1)c1ccc([N+](=O)[O-])o1,H37Rv,,MIC90,,6.25 µg/mL
O=C1c2cc(F)ccc2-n2c1nc1ccccc1c2=O,H37Rv,,MIC,,0.13 µg/mL
CCOC(=O)C[C@H](NCCCN[C@@H](CC(=O)OCC)C1O[C@@H]2OC(C)(C)O[C@@H]2[C@H]1OCc1ccccc1)C1O[C@@H]2OC(C)(C)O[C@@H]2[C@H]1OCc1ccccc1,H37Rv,,MIC,,25 µg/mL
CCCCNCc1ccccc1,H37Rv,,MIC,,60 µg/mL

An empty or dashed field is not shown. Conditions beyond the fields shown may differ between rows. Percent inhibition refers to the dose given; in toxicity tests it is the harm to the cells. A number after MIC or MFC names an inhibition level or a share of isolates. MIC bound: limit read from a one-dose screen.